Construct, isoform or probe ends are uncertain for at least one entry.
How the values were obtained:
[1] = molecular target: EcoRI restriction endonuclease (UniProt P00642); assay: inhibition of the protein; conditions: purified recombinant protein, protein details: New England Biolabs, single-stranded DNA
[2] = molecular target: EcoRI restriction endonuclease (UniProt P00642); assay: EMSA; conditions: 1x NEBuffer 1, 20 min room temperature, 300 U EcoRI; product about half ssDNA and half dsDNA; purified recombinant protein; protein details: New England …; single-stranded DNA

By UniProt entry, the sequences of proteins in these tests, tags left out. Residues count along the entry.
UniProt P00642, 2-277: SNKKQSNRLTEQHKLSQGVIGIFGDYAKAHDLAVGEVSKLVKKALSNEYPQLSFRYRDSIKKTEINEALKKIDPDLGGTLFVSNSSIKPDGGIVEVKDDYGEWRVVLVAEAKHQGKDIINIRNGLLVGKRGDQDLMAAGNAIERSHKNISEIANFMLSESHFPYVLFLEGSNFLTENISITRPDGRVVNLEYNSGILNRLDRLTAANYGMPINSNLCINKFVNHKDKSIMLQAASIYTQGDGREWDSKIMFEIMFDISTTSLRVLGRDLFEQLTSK

With “CAAGGCCTCTCCTGATCCGACGAGCAAGTAGCTCCAAGACGAGTTCAACCCCAGAATCAGGTCGGGAGCTGAAGCTGCTT [aptamer 3 (full length, asymmetric PCR product)]” the “functional effect of the aptamer” value ([1]; strong inhibitor of EcoRI cleavage of MBL, 37 C, 4 U EcoRI, dose not given here) was “active” and the binding result [2] was “binds”.

“CCGACGAGCAAGTAGCTCCAAGACGAGTTCAACCCCAGAATCAGGTCGG [aptamer 3_ADJ_L]” was tested, and the “functional effect of the aptamer” value ([1]; about 40 ng aptamer per 4 U EcoRI inhibits MBL cleavage (incompletely), 1.5x EcoRI NEBuffer, 30 C, relieved by linker trigger strand) was “active”.
